Compound potency records, mixed from different reports. Data source: NIAID ChemDB in PubChem.

Common to all: enzyme or target tests; organism: HIV-1; target: Protease; method: HPLC; endpoint: inhibition

Blank or dashed fields: not listed here.

SMILES,strain,dose,value
CC(=O)N[C@H](C(=O)N[C@@H](CC(C)C)C(=O)N[C@@H](CC(N)=O)C(=O)N[C@@H](Cc1ccccc1)C(N)=O)[C@@H](C)O,-,266 µg/mL,12%
Oc1cc(O)c2c(c1)O[C@H](c1cc(O)c(O)c(O)c1)[C@H](O)C2,IIIB,100 µg/mL,43.6%
CC(=O)N[C@@H](CC(C)C)C(=O)N[C@H](C(=O)N[C@@H](CC(C)C)C(=O)N[C@@H](CC(N)=O)C(=O)N[C@@H](Cc1ccccc1)C(=O)O)[C@@H](C)O,-,266 µg/mL,25%
OC[C@H]1O[C@@H](Oc2cc(O)cc(O)c2)[C@H](O)[C@@H](O)[C@@H]1O,IIIB,100 µg/mL,68.2%
C[C@@H]1CC[C@]2(C(=O)O[C@@H]3O[C@H](CO)[C@@H](O)[C@H](O)[C@H]3O)CC[C@]3(C)C(=CC[C@@H]4[C@@]5(C)C[C@@H](O)[C@H](O)C(C)(C)[C@@H]5CC[C@]43C)[C@@H]2[C@]1(C)O,-,100 µM,52.9%
CC(C)(C)NC(=O)[C@H]1N(C(=O)[C@@H](O)[C@H](Cc2ccccc2)NC(=O)c2ccccc2C(=O)NCc2cccnc2)CSC1(C)C,-,5 µM,12.6%
Oc1cc(O)c2c(c1)O[C@H](c1ccc(O)c(O)c1)[C@H](O)C2c1c(O)cc(O)c2c1O[C@H](c1cc(O)c(O)c(O)c1)[C@H](O)C2,IIIB,100 µg/mL,33.3%
C=CSC(NC(=O)[C@H](Cc1ccccc1)NS(=O)(=O)N1CCOCC1)C(=O)N[C@@H](CC1CCCCC1)[C@@H](O)C[C@H](C(=O)NCCCC)C(C)C,-,0.1 µM,54%
CC(C)(C)NC(=O)[C@H]1N(C(=O)[C@@H](O)[C@H](Cc2ccccc2)NC(=O)c2ccccc2C(=O)NCc2ccccn2)CSC1(C)C,-,5 µM,25.7%
CC1=CC[C@H]([C@@H](C)C2CC[C@@]3(C)C4=C(C=C5C=CC(=O)OC(C)(C)C5CC4)CC[C@]23C)OC1=O,-,100 µg/mL,94.8%
Cc1ccccc1CNC(=O)[C@H]1N(C(=O)[C@@H](O)[C@H](Cc2ccccc2)NC(=O)c2ccccc2NC(=O)OCc2ccccc2)CSC1(C)C,-,5 µM,98.3%
CSCC[C@H](NC(=O)[C@H](Cc1cnc[nH]1)NC(C)=O)C(=O)N[C@H](C(=O)N[C@@H](CC(C)C)C(=O)N[C@@H](CC(N)=O)C(=O)N[C@@H](Cc1ccccc1)C(=O)O)[C@@H](C)O,-,266 µg/mL,46%
CCOC(=O)[C@H](CC(C)C)NC(=O)[C@H](Cc1ccccc1)NC(=O)[C@@H](O)[C@H](Cc1ccccc1)NC(=O)OC(C)(C)C,-,33 µM,0%
COc1cc(O)cc(O)c1C(=O)CCc1ccccc1,-,100 µM,2.7%
COc1c(O)cc([C@H]2Oc3cc(O)cc(O[C@@H]4O[C@H](CO)[C@@H](O)[C@H](O)[C@H]4O)c3C[C@H]2O)cc1O,IIIB,100 µg/mL,72.9%
COc1cc2c(c(O)c1OC)-c1c(cc3c(c1OC)OCO3)[C@H](OC(=O)/C=C/c1ccccc1)[C@H](C)[C@H](C)C2,-,100 µg/mL,77.8%
O=C(CCc1ccccc1)c1c(O)cc(O)cc1O,-,100 µM,7.5%
CC(C)(C)NC(=O)[C@H]1N(C(=O)[C@@H](O)[C@H](Cc2ccccc2)NC(=O)c2ccccc2C(=O)NCc2ccncc2)CSC1(C)C,-,5 µM,8%
O=c1c(O[C@@H]2O[C@H](CO)[C@H](O)[C@H](O)[C@H]2O)c(-c2ccc(O)c(O)c2)oc2cc(O)cc(O)c12,-,100 µM,20.9%
Cc1ccccc1CNC(=O)[C@H]1N(C(=O)[C@@H](O)[C@H](Cc2ccccc2)NC(=O)c2ccccc2C(=O)NCc2cccnc2)CSC1(C)C,-,5 µM,59.6%
CC(C)C[C@H](NC(=O)[C@@H](NC(=O)[C@@H](N)CC(C)C)[C@@H](C)O)C(=O)N[C@@H](CC(N)=O)C(=O)N[C@@H](Cc1ccccc1)C(=O)O,-,400 µg/mL,14%

Conditions beyond the fields shown may differ between rows. Percent inhibition refers to the dose given; in toxicity tests it is the harm to the cells.